Assay results taken from paper PMC12490008 (Environmental Science & Technology, 2025).

Test system: River Chriesbach biofilm suspension (100%, 10%, 1%)

Anabaenopeptin B
half-life 1 (h), biphasic model: 41.06 h | half-life 2 (h), biphasic model: 41.47 h
